Anti-infective test results gathered from many reports (values: NIAID ChemDB through PubChem).

Common to all: enzyme or target tests; species: HIV-1; protein: Protease; read by: HPLC; read-out: IC50

ICn is the concentration giving n% inhibition. An empty or dashed field is not shown. Neighbouring rows are from separate reports.

smiles	conditions	result
O=Cc1ccc(O)c(O)c1		27.5 µM
COC(=O)[C@]12CCC(C)(C)C[C@H]1C1=CC[C@@H]3[C@@]4(C)CC/C(=N\OC(=O)CCCCC(=O)Oc5c(OC)ccc6c5[C@@]57CCC(C)[C@@H](C6)C5=C(OC)C(OC(C)=O)C(OC(C)=O)C7)C(C)(C)[C@@H]4CC[C@@]3(C)[C@]1(C)CC2		>100 µM
Cc1c(O)cccc1C(=O)N(O)CC(=O)N1CCC[C@@H]1C(=O)NC(C)(C)C		2.8 µM
CC(C)C[C@H](NC(=O)CCCCCCCCCCCCCCC(=O)N[C@@H](Cc1ccc(N)cc1)C(=O)N[C@@H](Cc1ccccc1)C(=O)O)C(=O)N[C@@H](CC(C)C)C(=O)N[C@@H](Cc1ccccc1)C(N)=O		0.33 µM
CC(C)C[C@H](NC(=O)C[C@H](O)[C@H](CC1CCCCC1)NC(=O)[C@H](C)NC(=O)C1Cc2ccccc2CN1)C(=O)N[C@@H](Cc1ccccc1)C(N)=O		0.09 µM
CC(C)C[C@H](NC(=O)[C@@H](NC(=O)CCCCCCCCCCCCCCC(=O)N[C@@H](CC(N)=O)C(=O)N[C@@H](CC1CCCCC1)C(=O)O)C(C)O)C(=O)N[C@@H](Cc1cc(I)c(Oc2cc(I)c(O)c(I)c2)c(I)c1)C(N)=O		0.24 µM
C[C@@]12CCC[C@@](C)(C(=O)O)[C@H]1CC[C@@]13C[C@@H](CC[C@H]12)[C@](O)(CO)C3		>300 µM
CC(C)c1ccccc1Sc1c(O)cc(-c2ccc(OCc3cccnc3)cc2)oc1=O	pH 4.7	0.068 µM
CC[C@H](C)[C@H](NC(=O)[C@@H](NC(=O)CCCCCCCCCCCCCCC(=O)N[C@@H](Cc1ccc(N)cc1)C(=O)N[C@@H](Cc1ccccc1)C(=O)O)C(C)O)C(=O)N[C@@H](Cc1ccccc1)C(N)=O		0.97 µM
COC(=O)[C@]12CCC(C)(C)C[C@H]1C1=CC[C@@H]3[C@@]4(C)CC/C(=N\O)C(C)(C)[C@@H]4CC[C@@]3(C)[C@]1(C)CC2		9.5 µM
CC(C)(C)NC(=O)[C@H]1CCCN1C(=O)[C@H](Cc1ccccc1)N(O)C(=O)[C@H](Cc1ccccc1)NC(=O)OCC1c2ccccc2-c2ccccc21		0.144 µM
CSCC[C@H](NC(=O)CCCCCCCCCCCCCCC(=O)N[C@H](C(=O)N[C@@H](CC(C)C)C(=O)N[C@@H](Cc1ccccc1)C(N)=O)C(C)C)C(=O)N[C@@H](Cc1ccccc1)C(=O)O		0.58 µM
CC(C)(C)NC(=O)[C@H]1CCCN1C(=O)[C@H](Cc1ccccc1)N(O)C(=O)[C@H](Cc1ccccc1)NC(=O)OCc1ccccc1		0.48 µM
CC(C)C[C@H](NC(=O)CCCCCCCCCCCCCCC(=O)N[C@@H](CC(N)=O)C(=O)N[C@@H](CC1CCCCC1)C(=O)O)C(=O)N[C@@H](CC(C)C)C(=O)N[C@@H](Cc1ccccc1)C(N)=O		0.54 µM
Cc1c(O)cccc1C(=O)N[C@@H](Cc1ccccc1)C(=O)N(O)CC(=O)N[C@@H](Cc1ccccc1)C(=O)NC(C)(C)C		2.2 µM
COc1ccc([C@H]2CC(=O)c3c(O)c(C)c(O)c(C)c3O2)cc1		64.3 µM
CC(C)c1ccccc1Sc1c(O)cc(-c2ccc(OCc3ccccn3)cc2)oc1=O	pH 4.7	0.14 µM
CC(O)[C@H](NC(=O)CCCCCCCCCCCCCCC(=O)N[C@@H](Cc1ccc(N)cc1)C(=O)N[C@@H](Cc1ccccc1)C(=O)O)C(=O)N[C@@H](CC1CCCCC1)C(=O)N[C@@H](Cc1ccccc1)C(N)=O		0.87 µM
CC1(C)CC[C@]2(C(=O)O)CC[C@]3(C)C(=CCC4[C@@]5(C)CC[C@@H](NC(=O)CCCCC(=O)O)C(C)(C)C5CC[C@]43C)C2C1		2.1 µM
CC(C)c1ccccc1Sc1c(O)cc(-c2ccc(OCc3ccccc3)cc2)oc1=O	pH 4.7	0.2 µM
Cc1c(O)cccc1C(=O)N[C@@H](Cc1ccccc1)C(=O)N(O)CC(=O)N1CCC[C@@H]1C(=O)NC(C)(C)C		2.07 µM
CC(C)C[C@H](NC(=O)C[C@H](O)[C@H](CC1CCCCC1)NC(=O)[C@H](C)NC(=O)C1Cc2ccccc2CN1)C(=O)N[C@@H](Cc1ccccc1)C(=O)O		0.2 µM
O=c1c(OC2O[C@@H](O)[C@H](O)[C@H](O)[C@H]2O)c(-c2ccc(O)cc2)oc2cc(O)cc(O)c12		>300 µM
O=c1oc(-c2ccc(OCc3cccnc3)cc2)cc(O)c1SCc1ccccc1	pH 4.7	3.3 µM
CC[C@H](CC[C@@H](C)C1CCCC2C3CC=C4C[C@@H](O[C@@H]5O[C@@H](CO)[C@H](O)[C@@H](O)[C@@H]5C)CC[C@]4(C)C3CC[C@@]21C)C(C)C		>300 µM
CC(C)c1ccccc1Sc1c(O)cc(-c2ccc(OCC#N)cc2)oc1=O	pH 4.7	0.091 µM
CC[C@H](C)[C@H](NC(=O)[C@@H](NC(=O)CCCCCCCCCCCCCCC(=O)N[C@@H](CS(C)(=O)=O)C(=O)N[C@@H](Cc1ccccc1)C(=O)O)C(C)O)C(=O)N[C@@H](Cc1ccccc1)C(N)=O		1.17 µM
C=C(C)[C@H]1CC[C@]2(C)[C@H]3CC[C@@H]4[C@@]5(C)C[C@H](OC(C)=O)C[C@](C)(C(=O)O)[C@@H]5CC[C@@]4(C)[C@]3(C)CC[C@@H]12		1.7 µM
CC(O)[C@H](NC(=O)CCCCCCCCCCCCCCC(=O)N[C@@H](CC(N)=O)C(=O)N[C@@H](Cc1cccc2ccccc12)C(=O)O)C(=O)N[C@H](C(=O)N[C@@H](Cc1ccccc1)C(N)=O)C1CCCCC1		0.37 µM
O=c1c(OC2O[C@@H](O)[C@H](O)[C@H](O)[C@H]2O)c(-c2ccc(O)cc2)oc2cc(OC3O[C@@H](O)[C@H](O)[C@H](O)[C@H]3O)cc(O)c12		>300 µM
CSCC[C@H](NC(=O)CCCCCCCCCCCCCCC(=O)N[C@@H](CCSC)C(=O)N[C@@H](CC(C)C)C(=O)N[C@@H](Cc1ccccc1)C(N)=O)C(=O)N[C@@H](Cc1ccccc1)C(=O)O		0.58 µM
COC(=O)[C@]12CCC(C)(C)C[C@H]1C1=CC[C@@H]3[C@@]4(C)CC[C@H](OC(=O)CCCCC(=O)Oc5c(OC)ccc6c5[C@@]57CCC(C)[C@@H](C6)C5=C(OC)C(OC(C)=O)C(OC(C)=O)C7)C(C)(C)[C@@H]4CC[C@@]3(C)[C@]1(C)CC2		>100 µM
CC(C)c1ccccc1Sc1c(O)cc(-c2ccc(OCCO)cc2)oc1=O	pH 4.7	0.035 µM

For reference, 3 entries again:

smiles | conditions | result
CC(C)c1ccccc1Sc1c(O)cc(-c2ccc(OCc3ccccn3)cc2)oc1=O | pH 4.7 | 0.14 µM
Cc1c(O)cccc1C(=O)N[C@@H](Cc1ccccc1)C(=O)N(O)CC(=O)N1CCC[C@@H]1C(=O)NC(C)(C)C |  | 2.07 µM
C=C(C)[C@H]1CC[C@]2(C)[C@H]3CC[C@@H]4[C@@]5(C)C[C@H](OC(C)=O)C[C@](C)(C(=O)O)[C@@H]5CC[C@@]4(C)[C@]3(C)CC[C@@H]12 |  | 1.7 µM